Data taken from patent publication US20250101490A1, “METHOD FOR SCREENING ACETYLCHOLINESTERASE INHIBITOR” (published 2025).

Chains of the proteins cited; added tags and fusions are not shown. Residues count along the entry.
UniProt P22303, 32-614 limits assumed: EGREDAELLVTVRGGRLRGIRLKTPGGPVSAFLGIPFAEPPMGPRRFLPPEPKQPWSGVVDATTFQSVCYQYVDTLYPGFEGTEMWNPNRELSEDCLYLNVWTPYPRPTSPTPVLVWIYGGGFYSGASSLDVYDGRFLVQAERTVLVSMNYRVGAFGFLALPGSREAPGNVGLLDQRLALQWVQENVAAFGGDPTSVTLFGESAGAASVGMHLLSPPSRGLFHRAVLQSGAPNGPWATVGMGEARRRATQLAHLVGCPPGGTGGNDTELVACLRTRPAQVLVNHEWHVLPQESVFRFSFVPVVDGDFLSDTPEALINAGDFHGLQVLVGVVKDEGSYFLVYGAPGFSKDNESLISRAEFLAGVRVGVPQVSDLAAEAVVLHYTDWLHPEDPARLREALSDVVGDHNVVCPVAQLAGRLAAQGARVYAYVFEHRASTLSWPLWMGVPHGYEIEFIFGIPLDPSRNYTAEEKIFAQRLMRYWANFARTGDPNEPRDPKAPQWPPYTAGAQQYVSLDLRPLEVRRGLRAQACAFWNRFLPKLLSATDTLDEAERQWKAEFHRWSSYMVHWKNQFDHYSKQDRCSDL

Target: recombinant human acetylcholinesterase (rhAChE) (Homo sapiens, UniProt P22303)
Settings: FIG. 7

CCOP(=O)(OCC)Oc1ccc([N+](=O)[O-])cc1
inhibition of AChE activity (EGFP-NFATc1 nuclear translocation): inhibit the activity of AChE in a concentration-dependent manner
